Results on 2 compounds are retold here after PubChem BioAssay (NCATS).

The entries are a selection whose mix differs from that of the whole data set. Inconclusive results are not listed. The source made the active and inactive calls. Unless noted, the call rests on the fitted dose curve; in most records, active means well fitted inhibition curve with a large enough effect; inconclusive means small, poorly fitted or top-dose-only effect; inactive means no such curve, though single readings can be large or run the other way.

For assay [1], the system named is Zika virus NS2B-NS3 protease (unlinked complex). As to the kind of experiment: Primary screen GU Rhodamine qHTS for Zika virus inhibitors: Unlinked NS2B-NS3 protease assay (AID 1347159). Further: on the % scale 0 is the no-effect control and ±100 the full control effect; nearly all actives have a fitted effect of over 60% in size. Conditions: Recombinant ZIKV NS2B-NS3 protease, Rhodamine110 substrate fluorescence; at 107 µM (top of the series). The procedure, abridged: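 Percent inhibition derives from the 15-min fluorescence change (ex 480, em 540 nm), normalized to no-enzyme and no-inhibitor wells. Reactions contained 25 nM NS2B-NS3 complex and 1.5 microM substrate in 10 mM Tris-HCl pH 8.0.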
On the technique in general: Quantitative high-throughput screening tests each substance at several concentrations.

Assay [2] has as its system Zika virus NS2B-NS3 protease (linked construct). As to the kind of experiment: Primary screen NINDS Rhodamine qHTS for Zika virus inhibitors (AID 1347160). Further: nearly all actives have a fitted effect of over 55% in size. The note with it: purified NS2B-NS3 protease, Rhodamine110 substrate fluorescence; activity change, negative = inhibition: at 57.1 µM (top of the series). Summed up: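 In 10 mM Tris-HCl pH 8.0 containing 0.01% Tween 20, linked NS2B-NS3 protease (25 nM final) is exposed to test compounds for 15 min. Cleavage of 1.5 microM Rhodamine110 substrate is tracked by fluorescence over 15 min.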

Assay [3] is described as follows: Confirmatory qHTS to identify inhibitors of SARS-CoV-2 cell entry (AID 1645844; calls by dose curve; further: potency means the concentration at half of the fitted maximal effect; nearly all actives have a fitted effect of over 45% in size). Conditions: SARS-CoV-2 pseudotyped particle cell entry, luciferase. Summed up:
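HEK293-ACE2 cells were pretreated 1 h with compound, then infected with MLV-based pseudoparticles bearing C-terminally truncated Wuhan-Hu-1 spike for 48 h at 37C; luciferase luminescence normalized to spike PP and bald PP wells.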

Assay [4] is described as follows: Cytotoxicity counterscreen for inhibitors of SARS-CoV-2 cell entry (AID 1645845; calls by dose curve; further: on the % scale 0 is the no-effect control and ±100 the full control effect; nearly all actives have a fitted effect of over 50% in size). Conditions: cell viability (SARS-CoV-2 entry assay cells); at 57.1 µM (top of the series).
A short description of assay [5]: VSVG counterscreen qHTS to identify inhibitors of SARS-CoV-2 cell entry (AID 1645847; calls by dose curve; further: potency means the concentration at half of the fitted maximal effect; nearly all actives have a fitted effect of over 65% in size). Conditions: VSV-G pseudotyped particle entry, luciferase. Summed up: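 HEK293-ACE2 cells (Expi293F, human ACE2) pretreated 1 h with compound, then infected with MLV-based VSV-G pseudotyped particles for 48 h at 37 C; luciferase luminescence normalized to VSV-G PP and bald PP wells.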
(The purpose of a counterscreen is to sort out artefacts and off-target activity.)

Assay [6] concerns the target Pyruvate kinase (Leishmania mexicana) (UniProt Q27686). As to the kind of experiment: qHTS Validation Assay for Inhibitors of Leishmania Mexicana Pyruvate Kinase (AID 945).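 Further: 0% = DMSO only neutral control wells.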 Conditions: purified L. mexicana pyruvate kinase, enzyme activity, E451W mutant enzyme; at 57.5 µM (top of the series). The procedure, abridged:
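Pyruvate kinase activity of E451W LmPYK (0.2 nM) was followed as ATP output after 1 h at room temperature with 0.5 mM PEP and 0.1 mM ADP, detected by PKLight luminescence.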

Consider `CN(C)C1(c2ccccc2)CCC2(CC1)OCCc1c2[nH]c2ccc(F)cc12` (stereo unspecified), for which, in assay [1], the activity change, negative = inhibition was inactive: 48.6%. The result in assay [2] was inactive. Further, the Potency in assay [3] is active: 4.29 µM; in assay [5], active: 3.83 µM. Besides, the activity change, negative = cytotoxicity in assay [4] is inactive: -20.4%.
As for `CN(C(=O)Cc1ccccc1)[C@@H]1CC[C@@]2(CCCO2)C[C@H]1N1CCCC1`, the activity change, negative = inhibition in assay [6] was inactive: 14.4%.
